This note sets out measurements from patent publication US20040063668A1, “Novel acyclic nucleoside phosphonate derivatives, salts thereof and process for the preparation of the same” (priority 2001, published 2004).

The test system of one data set is HepG2.2.15. The data set is described as follows: Determination of cytotoxicity (MTT) in HepG2.2.15 cells. The settings on record: read-out: CC50(μM) in HepG2.2.15, 10th day from treatment with drug.
The test system of the next data set is Hepatitis B Virus (HBV). The data set is described as follows: Inhibition of hepatitis B virus replication in HepG2.2.15 cell culture, quantitative PCR. Format: cell-based. The settings on record: read-out: EC50(μM) in HBV; HepG2.2.15 culture medium, 10 days after treatment with drug, PCR of HBV DNA.
The next data set relates to HBV. The data set is described as follows: Pharmacological test on HBV transgenic mouse (serum HBV DNA by PCR). Format: in vivo, HBV transgenic mice (FVB strain). The settings on record: subcutaneous, 10 mg/kg/day for 9 days; effect = blood does not contain HBV DNA.

This is a selection: effects in other tests are not listed, and their absence says nothing.

On to “{[1-({2-amino-[6-(4-nitrophenyl)sulfanyl]-9H-purin-9-yl}methyl)-2-methylcyclopropyl]oxy}methylphosphonic acid”, for which the CC50 – broadly, the concentration giving 50% cytotoxicity – in the data set on HepG2.2.15 is greater than 1000 µM. The EC50 – broadly, the concentration that produces a half-maximal response – in the data set with Hepatitis B Virus (HBV) is greater than 0.05 µM.
Take “{[1-({2-amino-[6-(4-methylphenyl)sulfanyl]-9H-purin-9-yl}methyl)-2-methylcyclopropyl]oxy}methylphosphonic acid”: in the data set with HepG2.2.15, the half-maximal cytotoxic concentration (CC50) is greater than 1000 µM. For the same substance, the EC50 in the data set on Hepatitis B Virus (HBV) was greater than 0.1 µM.
“{[1-({2-amino-[6-(4-methoxyphenyl)sulfanyl]-9H-purin-9-yl}methyl)-2-methylcyclopropyl]oxy}methylphosphonic acid”: the 50% cytotoxic concentration (CC50) in the data set on HepG2.2.15 is greater than 1000 µM. Besides, the EC50 with Hepatitis B Virus (HBV) is greater than 5 µM.
Take “{[1-({2-amino-[6-(4-nitrophenyl)sulfanyl]-9H-purin-9-yl}methyl)cyclopropyl]oxy}methylphosphonic acid”: the “Result: number of mice showing pharmacological effect/number of total mice” value in the data set on HBV is recorded as 3/4. The CC50 in the data set with HepG2.2.15 is greater than 1000 µM. For the same substance, in the data set with Hepatitis B Virus (HBV), the half-maximal effective concentration (EC50) is greater than 0.5 µM.
